According to ChEMBL document CHEMBL4673223, “Synthesis, Biological, and Structural Explorations of New Zwitterionic Derivatives of 14- O-Methyloxymorphone, as Potent μ/δ Opioid Agonists and Peripherally Selective Antinociceptives” (J Med Chem, 2019):

Test: Selectivity index, ratio of Ki for displacement of [3H]U69,593 from kappa opioid receptor in guinea-pig brain membranes to Ki for displacement of [3H]DAMGO from mu opioid receptor in rat brain membranes
Type: cell membranes
Procedure, shortened: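 Guinea-pig brain membranes (0.3–0.5 mg protein) in 50 mM Tris-HCl, pH 7.4, were incubated with 1 nM [3H]U69,593 for 30 min at 30 °C, with 10 μM naloxone defining nonspecific binding. MOR was measured on rat brain membranes with 1 nM [3H]DAMGO for 45 min at 35 °C. Samples were filtered and scintillation counted, and Ki was obtained by Cheng–Prusoff; duplicates, 3–4 experiments.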

CO[C@@]12CCC(=O)[C@@H]3Oc4c(O)ccc5c4[C@@]31CCN(C)[C@@H]2C5
Ratio Ki: 102
